Assay results reported in patent publication US20190321329A1, “FORMULATION FOR THE TREATMENT OF ACNE” (published 2019).

Tests used:
[1] = test system: Propionibacerium acnes (ATCC 6919); assay: Time-Kill Procedure according to ASTM E2315, P. acnes; conditions: 1 wt % suspension in water, contact 30 minutes, 2 and 14 hours, FIG. 3
[2] = test system: Staphylococcus aureus (ATCC 6538); assay: Time-Kill Procedure according to ASTM E2315, S. aureus; conditions: 1 wt % suspension in water, contact 30 minutes, 2 and 14 hours, FIG. 1
[3] = test system: Staphylococcus epidermidis (ATCC 12228); assay: Time-Kill Procedure according to ASTM E2315, S. epidermidis; conditions: 1 wt % suspension in water, contact 30 minutes, 2 and 14 hours, FIG. 2

## Cc1ccc(C(=O)OOC(=O)c2ccc(C)cc2)cc1
[1]
  number of colony forming units (CFU) per ml, speed of action compared with BPO: acts quicker on these bacteria than dibenzoyl peroxide (BPO)
[2]
  number of colony forming units (CFU) per ml, speed of action compared with BPO: acts quicker on these bacteria than dibenzoyl peroxide (BPO)
[3]
  number of colony forming units (CFU) per ml, speed of action compared with BPO: acts quicker on these bacteria than dibenzoyl peroxide (BPO)
